Columns and labels:
[1] = Inhibition of Cryptococcus neoformans carbonic anhydrase preincubated for 15 mins by phenol red dye based stopped flow CO2 hydration assay
[2] = Inhibition of Trypanosoma cruzi carbonic anhydrase preincubated for 15 mins by phenol red dye based stopped flow CO2 hydration assay
[3] = Inhibition of Leishmania donovani chagasi carbonic anhydrase preincubated for 15 mins by phenol red dye based stopped flow CO2 hydration assay
[4] = Inhibition of Malassezia globosa carbonic anhydrase preincubated for 15 mins by phenol red dye based stopped flow CO2 hydration assay

Compound `Nc1cc(S(=O)(=O)[N-][N+](=O)[O-])cc([N+](=O)[O-])c1O` has a Ki [1] of 350 nM, a Ki [2] of 850 nM and a Ki [3] of 1000 nM. For the same compound, the Ki [4] was 570 nM.
